The values that follow come from patent US10668048B2, “Compounds for inhibiting bacterial growth via phosphatidylglycerol binding” (Wichita State University, priority 2016, dated 2020).

The data set is described as follows: Liptin-PG binding in solution (ITC and/or 1H NMR titration). On the procedure: The lipid binding ability of liptins 1-3 (FIG. 2A) have been investigated in solution using isothermal titration calorimetry (ITC) and/or ^1H NMR. Stoichiometry of binding was accomplished with Job plots using ^1H NMR. […] The use of organic solvents allowed the determination of binding motif using ^1H NMR.
Liptins 1b, 1e, 2c, 2d, 3a, 3c in DMF/5% CHCl3; 3e in 50% DMSO, 45% CHCl3, 5% CH3OH.
Liptins 1h and 1i 40% DMSO, 60% CHCl3, 3f in 20% DMSO, 80% CHCl3.

Where [1] appears, read: ITC, 50% DMSO, 45% CHCl3, 5% CH3OH.

Take `O=C(NCCOCc1ccccc1)Nc1ccccc1-c1c2nc(c(-c3ccccc3NC(=O)NCCOCc3ccccc3)c3ccc([nH]3)c(-c3ccccc3NC(=O)NCCOCc3ccccc3)c3nc(c(-c4ccccc4NC(=O)NCCOCc4ccccc4)c4ccc1[nH]4)C=C3)C=C2` [Liptin 3a]: for the setting “ITC, DMF/5% CHCl3”, the ΔH is -2.8 kcal/mol and the ΔS was found to be 6 e.u.

For the setting “ITC, DMF/5% CHCl3”, `O=C(NCc1cc(CCCO)cc2c1OCOc1c(cc(CCCO)cc1CNC(=O)Nc1ccccc1)CCC2)Nc1ccccc1` [Liptin 2c] displayed a ΔH of -1.4 kcal/mol and a ΔS of 8 e.u.

For the setting “40% DMSO, 60% CHCl3”, `CCCCCCNC(=O)CCc1ccc2c(c1)CNCCCNCc1cc(CCC(=O)NCCCCCC)ccc1OCCCCO2` [Liptin 1i] yielded a ΔH of 3.7 kcal/mol and a ΔS of 27 e.u.

On to `NCC(=O)Nc1ccccc1-c1c2nc(c(-c3ccccc3NC(=O)CN)c3ccc([nH]3)c(-c3ccccc3NC(=O)CN)c3nc(c(-c4ccccc4NC(=O)CN)c4ccc1[nH]4)C=C3)C=C2.O=C(O)C(F)(F)F.O=C(O)C(F)(F)F.O=C(O)C(F)(F)F.O=C(O)C(F)(F)F` [Liptin 3e], for which, under setting [1], the ΔH was found to be 0.7 kcal/mol and the ΔS was determined as 18 e.u.

As for `CCOCCOCCOCCNC(=O)Nc1ccccc1-c1c2nc(c(-c3ccccc3NC(=O)NCCOCCOCCOCC)c3ccc([nH]3)c(-c3ccccc3NC(=O)NCCOCCOCCOCC)c3nc(c(-c4ccccc4NC(=O)NCCOCCOCCOCC)c4ccc1[nH]4)C=C3)C=C2` [Liptin 3c], under “ITC, DMF/5% CHCl3”, the ΔH is -1.2 kcal/mol and the ΔS came to 12 e.u.

For the setting “40% DMSO, 60% CHCl3”, `CCCCCCNC(=O)CCc1ccc2c(c1)CNCCCNCc1cc(CCC(=O)NCCCCCC)ccc1OCCCCCO2` [Liptin 1h] came in with a ΔH of 0.6 kcal/mol and a ΔS of 19 e.u.
